Measured values from several laboratories, pooled; numbers as filed in NIAID ChemDB.

Common to all: tests in culture; species: Candida albicans

Conditions beyond the fields shown may differ between rows.

SMILES | read-out | strain | method | value
S=C([S][Sn]([S]C(=S)N1CCCC1)([c]1ccccc1)[c]1ccccc1)N1CCCC1 | MIC | ATCC 18804 | - | 50 µg/mL
CC(=O)OC/C=C(\C)CCC=C(C)C | MIC99.9 | ATCC 90028 | broth dilution | >8000 µg/mL
CCC(C)CC(C)CCCCCCCCC(=O)N[C@H]1C[C@@H](O)[C@@H](OCCN)NC(=O)[C@@H]2C[C@@H](O)CN2C(=O)[C@H]([C@H](O)CCN)NC(=O)[C@H]([C@H](O)[C@@H](O)c2ccc(O)cc2)NC(=O)[C@@H]2C[C@@H](O)CN2C(=O)[C@H]([C@@H](C)O)NC1=O | EC50 | MY1055 | - | >20 µg/mL
C=C1C2CCC(C2)C1(C)C | MIC99.9 | ATCC 90028 | broth dilution | 4000 µg/mL
C=C(CC[C@@H](C)[C@H]1C[C@@H](O)[C@@]2(C(=O)O)C3=C(CC[C@]12C)[C@@]1(C)CC[C@H](O[C@@H]2O[C@@H](CO)[C@H](OC)[C@@H](O)[C@@H]2O)C(=C)[C@@H]1CC3)C(C)C | MIC | MY2301 | - | >64 µg/mL
Cn1nc(-c2cccc(Cl)c2)nc2c(=O)n(-c3ccccc3)c(=O)nc1-2 | MIC | IFO 0583 | - | 50 µg/mL
CC1=CC[C@@H]2C[C@H]1C2(C)C | MIC99.9 | ATCC 90028 | broth dilution | >8000 µg/mL
C[C@@H](c1ncncc1F)[C@](O)(Cn1cncn1)c1ccc(F)cc1F | MIC90 | - | - | 0.03–0.06 µg/mL
Cc1nn(C)c2nc(=O)n(C)c(=O)c-2[n+]1[O-] | MIC | IFO 0583 | - | 100 µg/mL
Clc1ccc(COC(Cn2ccnc2)c2ccc(Cl)cc2Cl)cc1 | EC50 | 75 strains | agar diffusion / agar | >10 µg/mL
CCC(C)CC(C)CCCCCCCCC(=O)N[C@H]1C[C@@H](O)[C@@H](O)NC(=O)[C@@H]2[C@@H](O)CCN2C(=O)[C@H]([C@H](O)CC(N)=O)NC(=O)[C@H]([C@H](O)[C@@H](O)c2ccc(O)cc2)NC(=O)[C@@H]2C[C@@H](O)CN2C(=O)[C@H]([C@@H](C)O)NC1=O | MIC | - | - | 0.02 µg/mL
Cc1c(-c2ccccc2)c(=O)oc2ccc(-c3cc(-c4ccc(Cl)cc4)c4c(n3)-c3ccccc3C4)cc12 | MIC | MTCC 227 | broth dilution / turbidity | 1000 µg/mL
C[C@@H]1[C@H](O)[C@@H](C)/C=C/C=C/CC/C=C/C=C/C=C/C=C/C(O[C@H]2O[C@H](C)[C@@H](O)[C@H](N)[C@@H]2O)CC2O[C@](O)(CC(O)C(O)CCC(O)CC(O)CC(O)CC(=O)O[C@H]1C)CC(O)C2C(=O)O | MFC100 | MD 37 | broth dilution | 64 µg/mL
Cc1ccc(-c2cc(-c3ccc4oc(=O)c(-c5ccccc5)c(C)c4c3)nc3c2oc2ccccc23)cc1 | MIC | MTCC 227 | broth dilution / turbidity | 250 µg/mL
Nc1[nH]c(=O)ncc1F | MIC90 | - | - | 0.06–1 µg/mL
COc1ccc(-c2cc(-c3ccc4oc(=O)c(-c5ccccc5)c(C)c4c3)nc3c2CCc2ccccc2-3)cc1OC | MIC | MTCC 227 | broth dilution / turbidity | 1000 µg/mL
CCCC[C@H]1C(=O)O[C@H](C)C(CCCCCCCNC(=O)c2cccc(NC=O)c2O)C(=O)O[C@@H](C)[C@@H]1OC(=O)CC(C)C | MIC | IFO1061 | - | 0.39 µg/mL
C1CCNCC1 | MIC50 | ATCC 90028 | broth dilution | 250 µg/mL
COc1ccc(C=O)c(OC)c1OC | MIC99.9 | ATCC 90028 | broth dilution | 2000 µg/mL
C=CCc1ccc(O)c(-c2ccc(O)c(CC=C)c2)c1 | MIC | YL 346 | broth dilution | 128 µg/mL
CC(=O)O[C@@H]1C[C@@]23C(=O)OC[C@](C)([C@@H]2CC[C@H]2C3=CC[C@@]3(C)[C@H](C(=O)O)[C@@](C)([C@H](C)C(C)C)CC[C@]23C)[C@H]1O[C@@H]1O[C@H](CO)[C@@H](O)[C@H](O)[C@H]1O | EC50 | MY1055 | - | 10 µg/mL
Cc1ccc(-c2nn(C)c3nc(=O)n(-c4ccccc4)c(=O)c-3[n+]2[O-])cc1 | MIC | IFO 0583 | - | 100 µg/mL
C[C@@H]1CC[C@@]2(OC1)O[C@H]1C[C@H]3[C@@H]4CC=C5C[C@@H](O[C@@H]6O[C@H](CO)[C@H](O[C@@H]7O[C@@H](C)[C@H](O)[C@@H](O)[C@H]7O)[C@@H](O)[C@H]6O[C@@H]6O[C@@H](C)[C@H](O)[C@@H](O)[C@H]6O)CC[C@]5(C)[C@H]4CC[C@]3(C)[C@H]1[C@@H]2C | MFC | - | - | 2.5 µg/mL
COc1ccnc(C(=O)NCCCCCCCCCCCCCCCC2COC(=O)C(Cc3ccccc3)C(OC(=O)C(C)C)C(C)OC2=O)c1O | MIC | IFO1061 | - | >100 µg/mL
C[C@@H]1[C@H](O)[C@@H](C)/C=C/C=C/CC/C=C/C=C/C=C/C=C/C(O[C@H]2O[C@H](C)[C@@H](O)[C@H](N)[C@@H]2O)CC2O[C@](O)(CC(O)C(O)CCC(O)CC(O)CC(O)CC(=O)O[C@H]1C)CC(O)C2C(=O)O | MIC | MTCC 227 | broth dilution / turbidity | 500 µg/mL
C=C1CC[C@H]2C[C@@H]1C2(C)C | MIC99.9 | ATCC 90028 | broth dilution | 1000 µg/mL
Cn1nc(-c2ccccc2)[n+]([O-])c2c(=O)n(-c3ccccc3)c(=O)nc1-2 | MIC | IFO 0583 | - | 50 µg/mL
C=C(CCC1(O)O[C@H]2C[C@H]3[C@@H]4CC=C5C[C@@H](O)[C@H](O)[C@@H](O[C@@H]6O[C@H](CO)[C@H](O)[C@H](O)[C@H]6O)[C@]5(C)[C@H]4CC[C@]3(C)[C@H]2[C@@H]1C)CO[C@@H]1O[C@H](CO)[C@@H](O)[C@H](O)[C@H]1O | MIC | - | - | 10 µg/mL
C=C(C)C1CC=C(C)C(=O)C1 | MIC50 | ATCC 90028 | broth dilution | 8000 µg/mL
C[C@H]1[C@H](O)[C@@H](C)/C=C/C=C/C=C/C=C/C=C/C=C/C=C/[C@H](O[C@@H]2O[C@H](C)[C@@H](O)[C@H](N)[C@@H]2O)C[C@@H]2O[C@](O)(C[C@@H](O)C[C@@H](O)CC[C@H](O)[C@@H](O)C[C@@H](O)CC(=O)O[C@H]1C)C[C@H](O)[C@H]2C(=O)O | MIC | - | - | 0.125–2 µg/mL
CC[C@H]1OC(=O)C=C2C1=CC1OC(=O)[C@@]3(C)CCC[C@@]2(C)[C@@H]13 | MIC | 1463D | - | 8 µg/mL
CCC(C)CC(C)CCCCCCCCC(=O)N[C@H]1C[C@@H](O)[C@H](NCCN)NC(=O)[C@@H]2[C@@H](O)CCN2C(=O)[C@H]([C@H](O)CCN)NC(=O)[C@H]([C@H](O)[C@@H](O)c2ccc(O)cc2)NC(=O)[C@@H]2C[C@@H](O)CN2C(=O)[C@H]([C@@H](C)O)NC1=O | MIC90 | - | - | 0.03–1 µg/mL
Cn1nc[n+]([O-])c2c(=O)n(C)c(=O)nc1-2 | MIC | IFO 0583 | - | 50 µg/mL
CCCC[C@H]1C(=O)O[C@H](C)[C@H](NC(=O)c2cccc(NC=O)c2O)C(=O)O[C@@H](C)[C@@H]1OC(=O)CC(C)C | MIC | IFO1061 | - | 0.1 µg/mL
Cn1nc(-c2ccc(Cl)cc2)nc2c(=O)n(C)c(=O)nc1-2 | MIC | IFO 0583 | - | 5 µg/mL
Clc1ccc(COC(Cn2ccnc2)c2ccc(Cl)cc2Cl)c(Cl)c1 | EC50 | 75 strains | agar diffusion / agar | <10 µg/mL
COc1ccnc(C(=O)NCC=C(C)C=C(C)C2COC(=O)C(Cc3ccccc3)C(OC(=O)C(C)C)C(C)OC2=O)c1O | MIC | IFO1061 | - | >100 µg/mL
CCN(CC)C(=S)[S][Sn]([c]1ccccc1)([c]1ccccc1)[c]1ccccc1 | MIC | Drug-resistant isolate | - | 5 µg/mL
Cn1ncnc2c(=O)n(C)c(=O)nc1-2 | MIC | IFO 0583 | - | 20 µg/mL
CO[C@H]1OC(=O)C[C@@]2(O)[C@@]13O[C@@H]3C1OC(=O)[C@@]3(C)CCC[C@@]2(C)[C@@H]13 | MIC | ATCC 90029 | - | >64 µg/mL
COc1ccccc1O | MIC50 | ATCC 90028 | broth dilution | 2000 µg/mL
C=C1CC[C@@]2(OC1)O[C@H]1C[C@H]3[C@@H]4CC=C5C[C@@H](O)[C@H](O)[C@@H](O[C@@H]6O[C@H](CO)[C@H](O)[C@H](O)[C@H]6O)[C@]5(C)[C@H]4CC[C@]3(C)[C@H]1[C@@H]2C | MFC | - | - | ≥20 µg/mL
Cn1nc(-c2ccc(Cl)c(Cl)c2)nc2c(=O)n(-c3ccccc3)c(=O)nc1-2 | MIC | IFO 0583 | - | 50 µg/mL
CCC(C)CC(C)CCCCCCCCC(=O)N[C@H]1C[C@@H](O)[C@H](NCCN)NC(=O)[C@@H]2[C@@H](O)CCN2C(=O)[C@H]([C@H](O)CCN)NC(=O)[C@H]([C@H](O)[C@@H](O)c2ccc(O)cc2)NC(=O)[C@@H]2C[C@@H](O)CN2C(=O)[C@H]([C@@H](C)O)NC1=O | MIC | MY1055 | - | 0.25 µg/mL
S=C([S][Sn]([CH]1CCCCC1)([CH]1CCCCC1)[CH]1CCCCC1)N1CCCC1 | MIC | ATCC 18804 | - | >250 µg/mL
CCC(C)n1ncn(-c2ccc(N3CCN(c4ccc(OC[C@H]5CO[C@](Cn6cncn6)(c6ccc(Cl)cc6Cl)O5)cc4)CC3)cc2)c1=O | MIC50 | - | - | 0.008–0.03 µg/mL
S=C([S][Sn]([Cl])([Cl])[S]C(=S)N1CCCC1)N1CCCC1 | MIC | Drug-resistant isolate | - | 2.5 µg/mL
Cc1cc(C2CCCCC2)n(O)c(=O)c1 | EC50 | 75 strains | agar diffusion / agar | <10 µg/mL
C[C@@H]1CC[C@@]2(OC1)O[C@H]1C[C@H]3[C@@H]4CC=C5C[C@@H](O)[C@H](O)[C@@H](O[C@@H]6OC[C@@H](O)[C@H](O)[C@H]6O[C@@H]6O[C@@H](C)[C@H](O)[C@@H](O)[C@H]6O)[C@]5(C)[C@H]4CC[C@]3(C)[C@@]1(O)[C@@H]2C | MIC | - | - | 20 µg/mL
CCN(CC)C(=S)[S][Sn]([CH]1CCCCC1)([CH]1CCCCC1)[CH]1CCCCC1 | MIC | Drug-resistant isolate | - | 75 µg/mL

ECn is the concentration giving n% inhibition of infection, replication or growth. MIC50, MIC90 and the like: level of inhibition, or share of isolates inhibited. An empty or dashed field is not shown. a–b is a range or a potency band.